Data source: PubChem BioAssay AID1224833 (University of Georgia, 2016)
Test: 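Human genes whose knock-down alters rotavirus replication in monkey cells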 (primary screen). Cells: monkey MA104 kidney cells. Reagent: siRNA pool against human genes, 50 nM. Time to read-out: 48 h knock-down before infection; read 24 h after infection. Conditions: infection with rotavirus strain RV3 two days after transfection; infectious dose for this stage not given. Detection: 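z-score of rotavirus antigen signal per well, from a fluorescent immunoassay, relative to non-targeting control wells on the same plate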. Reading the numbers: z-score vs non-targeting control: higher = more rotavirus replication than with non-targeting control. Rule for the call: In these data the active calls have z-score vs non-targeting control at about -1 or lower, or at about 1 or higher. Calls: active = z-score beyond 1 either way; inactive = z-score within 1 of zero.
In all, the deposit lists about 12,000 reagents; this is a part drawn at random. About 5,600 of them (46%) count as active. 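Active calls cover z-scores past 1 in both directions, so they include lowered as well as raised rotavirus replication.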

With knock-down of CEP19 (centrosomal protein 19), the screen gave z-score vs non-targeting control -1.57; active.
With knock-down of NR2C2 (nuclear receptor subfamily 2 group C member 2) the results were z-score vs non-targeting control -1.9; active.
Silencing of ACTL9 (actin like 9) resulted in: z-score vs non-targeting control -1.71; active.
Against MOGAT1 (monoacylglycerol O-acyltransferase 1), the values are z-score vs non-targeting control -0.692; inactive.
PENK (proenkephalin) showed z-score vs non-targeting control 2.25; active.
After knock-down of ADGRB3 (adhesion G protein-coupled receptor B3) the results were z-score vs non-targeting control -1.2; active.
With knock-down of DESI1 (desumoylating isopeptidase 1), the screen gave z-score vs non-targeting control -0.277; inactive.
Depletion of HNRNPDL (heterogeneous nuclear ribonucleoprotein D like) resulted in: z-score vs non-targeting control 0.156; inactive.
Against ANGPTL1 (angiopoietin like 1), the values are z-score vs non-targeting control -0.779; inactive.
For CTSS (cathepsin S) the deposit lists z-score vs non-targeting control 2.09; active.
After knock-down of ZNF823 (zinc finger protein 823), the screen gave z-score vs non-targeting control -1.14; active.
Silencing of ZNF236 (zinc finger protein 236) resulted in: z-score vs non-targeting control 0.656; inactive.
Against CYRIA (CYFIP related Rac1 interactor A), the entry reads z-score vs non-targeting control -0.977; inactive.
With knock-down of NDUFB1 (NADH:ubiquinone oxidoreductase subunit B1), the record shows z-score vs non-targeting control 1.15; active.
With knock-down of CLEC1B (C-type lectin domain family 1 member B), the screen gave z-score vs non-targeting control 0.793; inactive.
RERGL (RERG like) gave z-score vs non-targeting control -0.532; inactive.
TCF19 (transcription factor 19) gave z-score vs non-targeting control 1.8; active.
With knock-down of IRX2-DT (IRX2 divergent transcript) the results were z-score vs non-targeting control -2.06; active.
After knock-down of UQCRFS1, the screen gave z-score vs non-targeting control 0.868; inactive.
For ABCA9 (ATP binding cassette subfamily A member 9), the values are z-score vs non-targeting control 1.44; active.
For EPN1 (epsin 1) the deposit lists z-score vs non-targeting control -1.69; active.
HOXA1 (homeobox A1) scored z-score vs non-targeting control 2.68; active.
For ZNF281 (zinc finger protein 281) the deposit lists z-score vs non-targeting control 0.958; inactive.
After knock-down of NDST2 (N-deacetylase and N-sulfotransferase 2), the screen gave z-score vs non-targeting control -1.96; active.
UBXN6 (UBX domain protein 6) showed z-score vs non-targeting control 0.746; inactive.
Silencing of LYVE1 (lymphatic vessel endothelial hyaluronan receptor 1) came out at: z-score vs non-targeting control -0.866; inactive.
After knock-down of NKTR (natural killer cell triggering receptor), the record shows z-score vs non-targeting control -1.35; active.
After knock-down of ZNF33B (zinc finger protein 33B), the screen gave z-score vs non-targeting control -1.41; active.
UTP6 (UTP6 small subunit processome component) gave z-score vs non-targeting control 0.0789; inactive.
ZNF326 (zinc finger protein 326) gave z-score vs non-targeting control -0.926; inactive.
Against DYDC1 (DPY30 domain containing 1), the entry reads z-score vs non-targeting control 1.43; active.
Against PSMB1 (proteasome 20S subunit beta 1), the entry reads z-score vs non-targeting control -2.04; active.
OR52A1 (olfactory receptor family 52 subfamily A member 1) showed z-score vs non-targeting control 1.69; active.
Knock-down of RCBTB1 (RCC1 and BTB domain containing protein 1) came out at: z-score vs non-targeting control -0.9; inactive.
Knock-down of IL1A (interleukin 1 alpha) resulted in: z-score vs non-targeting control -1.64; active.
After knock-down of OR56A3 (olfactory receptor family 56 subfamily A member 3), the record shows z-score vs non-targeting control -1.16; active.
Against SOSTDC1 (sclerostin domain containing 1) the deposit lists z-score vs non-targeting control 1.73; active.
Depletion of MTCP1 (mature T cell proliferation 1) resulted in: z-score vs non-targeting control -1.88; active.
With knock-down of L3MBTL1 (L3MBTL histone methyl-lysine binding protein 1) the results were z-score vs non-targeting control -0.925; inactive.
Against TMEM106A (transmembrane protein 106A), the entry reads z-score vs non-targeting control 0.909; inactive.
For SNX29 (sorting nexin 29), the entry reads z-score vs non-targeting control -1.69; active.
CITED4 (Cbp/p300 interacting transactivator with ED-rich tail 4) showed z-score vs non-targeting control 1.69; active.
Depletion of RBM8A (RNA binding motif protein 8A) came out at: z-score vs non-targeting control -2.01; active.
PGBD4 (piggyBac transposable element derived 4) scored z-score vs non-targeting control -0.47; inactive.
Against VEZT (vezatin, adherens junctions transmembrane protein), the values are z-score vs non-targeting control 0.306; inactive.
Silencing of SNX13 (sorting nexin 13) gave: z-score vs non-targeting control -0.577; inactive.
Depletion of ZFAT (zinc finger and AT-hook domain containing) resulted in: z-score vs non-targeting control -0.937; inactive.

Laid out differently: results already given
{"Target gene": "OR52A1 (olfactory receptor family 52 subfamily A member 1)", "z-score vs non-targeting control": 1.69, "Call": "active"}
{"Target gene": "RCBTB1 (RCC1 and BTB domain containing protein 1)", "z-score vs non-targeting control": -0.9, "Call": "inactive"}
{"Target gene": "IL1A (interleukin 1 alpha)", "z-score vs non-targeting control": -1.64, "Call": "active"}
{"Target gene": "OR56A3 (olfactory receptor family 56 subfamily A member 3)", "z-score vs non-targeting control": -1.16, "Call": "active"}
{"Target gene": "SOSTDC1 (sclerostin domain containing 1)", "z-score vs non-targeting control": 1.73, "Call": "active"}
{"Target gene": "MTCP1 (mature T cell proliferation 1)", "z-score vs non-targeting control": -1.88, "Call": "active"}
{"Target gene": "L3MBTL1 (L3MBTL histone methyl-lysine binding protein 1)", "z-score vs non-targeting control": -0.925, "Call": "inactive"}
